Measured values from several laboratories, pooled; numbers as filed in NIAID ChemDB.

Shared fields: tests in culture; organism: Cryptosporidium parvum; measure: inhibition

Blank or dashed fields: not listed here. Inhibition is in % at the dose shown (toxicity tests: loss of growth or viability). Conditions beyond the fields shown may differ between rows.

compound,dose,strain or isolate,cells,result
N#CC(c1ccc(Cl)cc1)c1c(Cl)cc(-n2ncc(=O)[nH]c2=O)cc1Cl,20 µg/mL,Calf isolate,L929,24.81%
CC(C)[C@H](NC(=O)[C@H](CCCN=C(N)N)NC(=O)N[C@@H](Cc1ccccc1)C(=O)O)C(=O)N[C@H](C=O)CCCN=C(N)N,10 µg/mL,,,46.89%
CC(C)(C)NC(=O)[C@@H]1CN(Cc2cccnc2)CCN1C[C@@H](O)C[C@@H](Cc1ccccc1)C(=O)N[C@H]1c2ccccc2C[C@H]1O,200 µg/mL,,HCT-8,50%
Nc1nc(=O)n([C@H]2C[C@H](O)[C@@H](CO)O2)cc1I,100 µg/mL,,,92%
C[C@H]1[C@H](O)[C@@H](C)/C=C/C=C/C=C/C=C/C=C/C=C/C=C/[C@H](O[C@@H]2O[C@H](C)[C@@H](O)[C@H](N)[C@@H]2O)C[C@@H]2O[C@](O)(C[C@@H](O)C[C@@H](O)CC[C@H](O)[C@@H](O)C[C@@H](O)CC(=O)O[C@H]1C)C[C@H](O)[C@H]2C(=O)O,0.8 µg/mL,Calf isolate,L929,-18.52%
NC12CC3CC(CC(C3)C1)C2,100 µg/mL,,,56%
Cc1cc(-n2c(=O)[nH]c(=O)n(C)c2=O)ccc1Oc1ccc(SC(F)(F)F)cc1,1 µM,,HCT-8,0%
NC(=O)c1ncn([C@@H]2O[C@H](CO)[C@@H](O)[C@H]2O)n1,10 µg/mL,,,60%
CCc1nc(N)nc(N)c1-c1ccc(Cl)cc1,4 µg/mL,Calf isolate,L929,74.21%
Nc1ccn([C@@H]2O[C@H](CO)[C@@H](O)[C@@H]2O)c(=O)n1,100 µg/mL,,,70%
Cc1c(N)nc([C@H](CC(N)=O)NC[C@H](N)C(N)=O)nc1C(=O)N[C@H](C(=O)N[C@H](C)[C@@H](O)[C@H](C)C(=O)N[C@H](C(=O)NCCc1nc(-c2nc(C(=O)NCCC[S+](C)C)cs2)cs1)[C@@H](C)O)C(O[C@@H]1O[C@@H](CO)[C@@H](O)[C@H](O)[C@@H]1O[C@H]1O[C@H](CO)[C@@H](O)[C@H](OC(N)=O)[C@@H]1O)c1cnc[nH]1,1 µM,,HCT-8,0%
Cc1cn([C@@H]2O[C@H](CO)[C@@H](O)[C@@H]2O)c(=O)[nH]c1=O,25 µg/mL,,,68%
CC[C@@]1([C@@H]2O[C@@H]([C@H]3O[C@@](O)(CO)[C@H](C)C[C@@H]3C)C[C@@H]2C)CC[C@H]([C@]2(C)CC[C@]3(C[C@H](O)[C@@H](C)[C@@H]([C@@H](C)[C@@H](OC)[C@H](C)C(=O)O)O3)O2)O1,1 µM,,HCT-8,100%
CCCCc1cc2c(=O)c(C(=O)OC)c[nH]c2cc1OCc1ccccc1,0.8 µg/mL,Calf isolate,L929,44%
O=c1[nH]c(=O)n([C@H]2C[C@H](O)[C@@H](CO)O2)cc1C(F)(F)F,1 µg/mL,,,89%
CCCc1ncc(C[n+]2ccccc2C)c(N)n1,0.032 µg/mL,Calf isolate,L929,21.57%
CO[C@H]1O[C@@H](n2ccc(=O)[nH]c2=O)C[C@@H]1N=[N+]=[N-],50 µg/mL,,,12%
Cc1c(O)cccc1C(=O)N[C@@H](CSc1ccccc1)[C@H](O)CN1C[C@H]2CCCC[C@H]2C[C@H]1C(=O)NC(C)(C)C,10 µg/mL,,HCT-8,20%
CC1(C)N=C(N)N=C(N)N1c1ccc(Cl)cc1,0.032 µg/mL,Calf isolate,L929,16.95%
NC[C@@H]1O[C@H](O[C@H]2[C@@H](O)[C@H](O[C@@H]3[C@@H](O)[C@H](N)C[C@H](N)[C@H]3O[C@H]3O[C@H](CO)[C@@H](O)[C@H](O)[C@H]3N)O[C@@H]2CO)[C@H](N)[C@@H](O)[C@@H]1O,100 µg/mL,,HT29.74,62%
Nc1ncnc2c1ncn2Cc1c(F)cccc1Cl,0.032 µg/mL,Calf isolate,L929,19.66%
CCN(CC)CCCC(C)Nc1ccnc2cc(Cl)ccc12,1 µM,,HCT-8,0%

The first 3 rows once more:

compound	dose	strain or isolate	cells	result
N#CC(c1ccc(Cl)cc1)c1c(Cl)cc(-n2ncc(=O)[nH]c2=O)cc1Cl	20 µg/mL	Calf isolate	L929	24.81%
CC(C)[C@H](NC(=O)[C@H](CCCN=C(N)N)NC(=O)N[C@@H](Cc1ccccc1)C(=O)O)C(=O)N[C@H](C=O)CCCN=C(N)N	10 µg/mL			46.89%
CC(C)(C)NC(=O)[C@@H]1CN(Cc2cccnc2)CCN1C[C@@H](O)C[C@@H](Cc1ccccc1)C(=O)N[C@H]1c2ccccc2C[C@H]1O	200 µg/mL		HCT-8	50%